From article PMC6833013 (Molecules, 2019)
Values after ≈ are worked out from the molar mass of the structure shown. Values joined by “and” are separate entries in the source; they are usually repeats but may differ in a detail not shown here. Equal values may be shown once.

What was measured:
Bacillus subtilis MB964 = experiment: Agar plate assay (inhibition halos); assay type: cell-based; conditions: 10 μL of each of 10 two-fold dilutions starting at 64 μg/mL
Escherichia coli MB5746 = experiment: Antibacterial test (liquid growth inhibition, MIC); assay type: cell-based; conditions: lowest concentration inhibiting ≥95% growth, 20 h at 37 °C, top concentration 64 μg/mL
Escherichia coli MB2884 = experiment: Antibacterial test (liquid growth inhibition, MIC); assay type: cell-based; conditions: lowest concentration inhibiting ≥95% growth, 20 h at 37 °C, top concentration 64 μg/mL
[1] = system: Acinetobacter baumannii MB5973; experiment: Antibacterial test (liquid growth inhibition, MIC); assay type: cell-based; conditions: lowest concentration inhibiting ≥95% growth, 20 h at 37 °C, top concentration 64 μg/mL
[2] = system: Methicillin-resistant Staphylococcus aureus MRSA MB5393; experiment: Antibacterial test (liquid growth inhibition, MIC); assay type: cell-based; conditions: lowest concentration inhibiting ≥95% growth, 20 h at 37 °C, top concentration 64 μg/mL
[3] = system: Pseudomonas aeruginosa MB5919; experiment: Antibacterial test (liquid growth inhibition, MIC); assay type: cell-based; conditions: lowest concentration inhibiting ≥95% growth, 20 h at 37 °C, top concentration 64 μg/mL
Candida albicans MY1055 = experiment: Antifungal assay (liquid growth inhibition, MIC); assay type: cell-based; conditions: lowest concentration inhibiting ≥95% growth, 20 h at 37 °C, top concentration 64 μg/mL
Fa2N4 = experiment: MTT cytotoxicity assay; assay type: cell-based; conditions: non-tumoral immortalized human hepatocytes, 24 h of incubation
[4] = system: Staphylococcus aureus EPI167; experiment: Antibacterial test (MIC); assay type: cell-based; conditions: top concentration 64 μg/mL
A549 = experiment: MTT cytotoxicity assay; assay type: cell-based, human; conditions: lung carcinoma cells, 24 h of incubation
RCC4-VHL = experiment: MTT cytotoxicity assay; assay type: cell-based, human; conditions: renal carcinoma cells, 24 h of incubation
MCF-7 = experiment: MTT cytotoxicity assay; assay type: cell-based, human; conditions: breast carcinoma cells, 24 h of incubation
HepG2 = experiment: MTT cytotoxicity assay; assay type: cell-based, human; conditions: liver cancer cells, 24 h of incubation
RCC4-VA = experiment: MTT cytotoxicity assay; assay type: cell-based, human; conditions: renal carcinoma cells, 24 h of incubation
HT29 = experiment: MTT cytotoxicity assay; assay type: cell-based, human; conditions: colon carcinoma cells, 24 h of incubation
[5] = system: HL-60, SMMC-7721, A549, MCF-7 and SW480 cell lines; conditions: cited from earlier work
primary cultured neurons = conditions: cited from earlier work

Molecule	B. subtilis MB964 inhibition halo (Bacillus subtilis MB964)	MIC E. coli MB5746 (Escherichia coli MB5746) [µg/mL]	MIC E. coli MB2884 (Escherichia coli MB2884) [µg/mL]	MIC A. baumannii MB5973 [1] [µg/mL]	MIC MRSA MB5393 [2] [µg/mL]	MIC P. aeruginosa MB5919 [3] [µg/mL]	MIC C. albicans MY1055 (Candida albicans MY1055)	IC50 Fa2N4 (Fa2N4) [µg/mL]	MIC S. aureus EPI167 [4] [µg/mL]	IC50 A549 (A549) [µg/mL]	IC50 RCC4-VHL (RCC4-VHL) [µg/mL]	IC50 MCF-7 (MCF-7) [µg/mL]	IC50 HepG2 (HepG2) [µg/mL]	IC50 RCC4-VA (RCC4-VA) [µg/mL]	IC50 HT29 (HT29) [µg/mL]	further results
Trichodermin	no halo	> 64	> 64	> 64	> 64	> 64	< 4 µg/mL	12.09	> 64	> 20	>20	<1.25	>20	14.19	> 20	MIC C. albicans MY1055 (Candida albicans MY1055; listed as trichodermin (1)): < 4 µg/mL; IC50 Fa2N4 (Fa2N4; listed as Trichodermin (1)): moderately inhibited; IC50 MCF-7 (MCF-7; listed as Trichodermin (1)): intense cytotoxic activity; IC50 RCC4-VA (RCC4-VA; listed as Trichodermin (1)): moderately inhibited
CC1=C[C@H]2O[C@@H]3C[C@@H](O)[C@](C)([C@@]2(C)CC1)[C@]31CO1	no halo	> 64	> 64	> 64	> 64	> 64	8 to 16 µg/mL and 8 to 32 µg/mL	>20	> 64	> 20	>20	4.42 (≈ 17.7 µM)	>20	>20	> 20	IC50 MCF-7 (MCF-7; listed as Trichodermol (2)): still exhibited good activity
8-deoxytrichothecin																cell viabilities [5]: significantly reduced the cell viabilities; accumulation of glucosylceramide (GlcCer) and reduction of lactosylceramide (LacCer) formation (primary cultured neurons): induced the accumulation of glucosylceramide (GlcCer)
